Data as given in PubChem BioAssay AID504761 (Drosophila RNAi Screening Center, 2011).
Aim: 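Fly genes whose silencing reduces dengue virus type 2 infection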 (primary screen). Cell system: D.Mel-2 cells from Drosophila. Knock-down reagent: long dsRNA against Drosophila genes. Treatment: infection with dengue virus type 2; dose and infection time not stated. Measured: 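Per well on two replicate plates, imaging gave the percent of cells positive for viral envelope protein, ranked by infection, and a nuclear count of cells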. Reading the numbers: infection score: higher = more virus-infected cells; cell count: higher = more cells in the well. Call rule: 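Low infection ranks in the two replicates (chance level up to 0.065) followed by a retest with a 1.5-fold or larger significant decrease, p below 0.05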. Meaning of the calls: active = confirmed: knock-down lowers infection; inactive = not picked or not confirmed.
In all, the deposit lists about 22,000 reagents; this is a random part of those that have a named target and a result. Of all reagents, 116 (0.52%) got an active call. 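Calls depend on retest data that are not deposited; infection was ranked per plate without normalising between plates; the unit of the infection score is not given.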 Raw values vary from plate to plate and are shown uncorrected. A number with no mark means an inactive call. The numbers tell different reagents against one gene apart. Further read-outs or replicates are left out here. Not stated in the record: the amount of reagent, the time to read-out.

Against CG32650 the deposit lists infection score, replicate 1 = 1.34; cell count, replicate 1 = 6732.
Depletion of Orc2 (Origin recognition complex subunit 2) gave: infection score, replicate 1 = 10.3; cell count, replicate 1 = 6735.
TpnC47D (Troponin C at 47D) scored infection score, replicate 1 = 18.5; cell count, replicate 1 = 6856.
Dtwd2 (DTW domain containing 2) scored infection score, replicate 1 = 3.6; cell count, replicate 1 = 6438.
For Tm1 (Tropomyosin 1) #1, the values are infection score, replicate 1 = 4.59; cell count, replicate 1 = 6140.
Depletion of Tm1 (Tropomyosin 1) #2 gave: infection score, replicate 1 = 2.12; cell count, replicate 1 = 5991.
Depletion of Tm1 (Tropomyosin 1) #3 resulted in: infection score, replicate 1 = 20.6; cell count, replicate 1 = 3635.
After knock-down of Tm1 (Tropomyosin 1) #4, the screen gave infection score, replicate 1 = 1.53; cell count, replicate 1 = 6476.
Grl58a (Gustatory receptor-like 58a) gave infection score, replicate 1 = 3.02; cell count, replicate 1 = 6589.
Depletion of TwdlX (TweedleX) #1 resulted in: infection score, replicate 1 = 1.28; cell count, replicate 1 = 6615.
For TwdlX (TweedleX) #2, the entry reads infection score, replicate 1 = 13.5; cell count, replicate 1 = 2501.
Knock-down of Dbp21E2 (DEAD box protein 21E2) #1 gave: infection score, replicate 1 = 1.22; cell count, replicate 1 = 5993.
Dbp21E2 (DEAD box protein 21E2) #2 gave infection score, replicate 1 = 0.69; cell count, replicate 1 = 723.
